Measured values reported in PMC10508830 (Antiviral research, 2023).

Tests used:
[1] = system: clade 2.3.4.4b A(H5N1) viruses that lack flagged PA mutations (n = 17); conditions: HINT and IRINA; baseline
[2] = system: A/red-shouldered hawk/Minnesota/22-012000-004/2022 (PA K29R); conditions: read-out: Mean EC50 ± SD; HINT; MDCK-SIAT1 cells; hawk/MN-4/22, PA K29R

Structure (SMILES): O=C1c2c(O)c(=O)ccn2N([C@@H]2c3ccccc3SCc3c2ccc(F)c3F)[C@@H]2COCCN12 [Baloxavir, baloxavir acid]
- median EC50 [1]: sub-nanomolar range
- EC50 [2]: 530 pM
